This passage reports IC50 and IC90 results from publication PMC8878748, “Broad-Spectrum Antiviral Activity of the Amphibian Antimicrobial Peptide Temporin L and Its Analogs” (International Journal of Molecular Sciences, 2022).

This assay relates to influenza virus (subtype H1N1). The conditions noted are these: influenza virus (subtype, 2 h).

The term IC50 denotes the midpoint of a concentration-inhibition curve. Low values mean inhibition by little substance, high ones a need for much substance. For orientation: IC90 means the point of the concentration-response curve where the effect stands at 90%. Read a high IC90 as weaker potency. In turn, `CCCC[C@H](NC(=O)[C@@H](CC(C)C)NC(=O)[C@H](Cc1ccccc1)NC(=O)[C@H](CCCCN)NC(=O)[C@H](CO)NC(=O)[C@H](Cc1ccccc1)NC(=O)[C@H](Cc1c[nH]c2ccccc12)NC(=O)[C@@H]1CCCN1C(=O)[C@@H](NC(=O)[C@H](Cc1ccccc1)NC(=O)CNC(=O)CNC(=O)[C@@H](N)CSCC(=O)NCCOCCOCCOCCOCCC(=O)O[C@H]1CC[C@@]2(C)C(=CC[C@H]3[C@@H]4CC[C@H]([C@H](C)CCCC(C)C)[C@@]4(C)CC[C@@H]32)C1)C(C)C)C(=O)N[C@@H](CCCNC(=N)N)C(=O)N[C@H](C(=O)N[C@@H](CC(C)C)C(N)=O)[C@@H](C)CC` [TL6.4, H-[Cholesterol-PEG4]-Cys-Gly-Gly-Phe-Val-Pro-Trp-Phe-Ser-Lys-Phe-DLeu-Nle-Arg-Ile-Leu-NH2] yielded a 50% inhibitory concentration (IC50) of 6.02 µM and an IC90 of 9.9 µM.
